Values from PubChem BioAssay AID624099 (ICCB-Longwood, 2012).

Test: 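Host factors E2 relies on to silence an HPV18 LCR reporter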 (primary screen)
Cell system: human C33A cervical carcinoma cells (HPV-negative) stably expressing BPV1 E2 and an HPV18 LCR luciferase reporter
Reagents: siRNA pool against human genes, 40 nM
Duration: 72 h
Read-out: 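HPV18 LCR reporter light per well, converted to plate-wise z-scores that exclude control wells, and averaged over triplicate plates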
Direction: mean z-score and z-score: higher = stronger reporter signal, weaker E2 silencing
Hit rule: 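Hit if mean z-score reaches 2 and two or more of three replicate z-scores also reach 2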
Shown is one part, drawn at random, of about 21,000 reagents tested. In the full data, 497 (2.4%) are marked active. 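Higher z means weaker E2 silencing; only reporter increases were scored, and knock-downs that hurt cell survival may mask genuine repressor factors.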 Entries without a mark were called inactive.

| mean z-score | z-score, replicate A | z-score, replicate B | z-score, replicate C | gene |
| --- | --- | --- | --- | --- |
| -0.07 | -0.14 | -0.15 | 0.09 | LCE2B |
| 1.24 | 1.76 | 1.17 | 0.78 | SNX7 |
| 0.17 | 0.31 | 0.08 | 0.1 | LOC389329 (retired record) |
| 0.14 | 0 | 0.12 | 0.29 | TMF1 |
| -0.29 | -0.19 | -0.47 | -0.2 | INSC |
| 0.06 | -0.09 | 0.16 | 0.12 | DRD3 |
| 1.6 | 1.58 | 1.46 | 1.75 | H2BC11 |
| 0.08 | 0.08 | 0 | 0.17 | OR2H2 |
| 0.63 | 0.3 | 0.77 | 0.8 | SEPTIN3 |
| -1.28 | -1.32 | -1.24 | -1.28 | CIMIP1 |
| 0.46 | 0.72 | 0.13 | 0.53 | C14orf39 |
| -0.93 | -0.97 | -1.15 | -0.67 | GPC4 |
| 1.24 | 1.42 | 0.98 | 1.32 | USF2 |
| -1.34 | -1.4 | -1.24 | -1.39 | CST3 |
| -1.26 | -1.31 | -1.24 | -1.22 | COQ10A |
| 0.62 | 0.9 | 0.31 | 0.66 | ACADM |
| 0.01 | -0.08 | 0.23 | -0.11 | FLJ42393 |
| 0.07 | 0.55 | 0.25 | -0.59 | ZNF287 |
| -0.96 | -1.23 | -0.68 | -0.97 | FBLL1 |
| 0.87 | 1.16 | 0.78 | 0.67 | LRRIQ1 |
| -0.12 | 1.09 | -1.08 | -0.37 | ATP8B5P |
| 0.69 | 0.48 | 0.82 | 0.77 | RMI1 |
| 0.55 | 0.55 | 0.65 | 0.46 | RNF157 |
| -0.42 | -0.55 | -0.28 | -0.43 | ZNF134 |
| 0.29 | 0.57 | 0.38 | -0.1 | KLHL5 |
| 0.18 | 0.02 | 0.27 | 0.26 | TAS2R41 |

In a second layout: 10 of the entries above.
mean z-score | z-score, replicate A | z-score, replicate B | z-score, replicate C | gene
0.63 | 0.3 | 0.77 | 0.8 | SEPTIN3
-1.28 | -1.32 | -1.24 | -1.28 | CIMIP1
0.46 | 0.72 | 0.13 | 0.53 | C14orf39
-0.93 | -0.97 | -1.15 | -0.67 | GPC4
1.24 | 1.42 | 0.98 | 1.32 | USF2
-1.34 | -1.4 | -1.24 | -1.39 | CST3
-1.26 | -1.31 | -1.24 | -1.22 | COQ10A
0.62 | 0.9 | 0.31 | 0.66 | ACADM
0.01 | -0.08 | 0.23 | -0.11 | FLJ42393
0.07 | 0.55 | 0.25 | -0.59 | ZNF287

The results go on.
| mean z-score | z-score, replicate A | z-score, replicate B | z-score, replicate C | gene |
| --- | --- | --- | --- | --- |
| -0.57 | -0.39 | -0.56 | -0.76 | STX5 |
| -0.19 | -0.42 | -0.23 | 0.08 | SLC9C2 |
| 0.55 | 0.65 | 0.63 | 0.38 | TYW5 |
| 1.6 | 1.66 | 1.64 | 1.52 | DUS1L |
| 0.12 | -0.14 | 0.22 | 0.26 | ZNF385A |
| -0.65 | -0.74 | -0.81 | -0.39 | CBR4 |
| 0.23 | 0.41 | 0.19 | 0.09 | STX18 |
| 0.41 | 0.12 | 0.65 | 0.45 | MND1 |
| 2.24 (active) | 2.16 | 2.39 | 2.18 | LRRCC1 |
| 1.04 | 0.89 | 1.18 | 1.05 | SLC6A20 |
| -1.14 | -0.82 | -0.99 | -1.62 | SLC68A1 |
| 1.37 | 1.22 | 1.84 | 1.05 | COQ8B |
| 1.15 | 0.76 | 1.35 | 1.34 | ORC3 |
| -0.41 | -0.63 | -0.45 | -0.17 | ASMTL |
| -0.76 | -0.63 | -0.54 | -1.1 | TPPP3 |
| 1.46 | 1.6 | 1.53 | 1.24 | ZBED10P |
| 0.4 | 0.62 | 0.4 | 0.17 | LRRC14 |
| 0.36 | 0.78 | 0.35 | -0.06 | GAS6 |
| -0.75 | -0.47 | -0.84 | -0.95 | BIRC8 |
| 0.88 | 1.08 | 0.84 | 0.73 | ATP5MC1 |
| 1.26 | 1.15 | 1.26 | 1.38 | RPL22 |
| 1.21 | 1.07 | 1.1 | 1.46 | BAZ1B |
| 0.43 | 0.52 | 0.15 | 0.62 | DOCK7 |
| -1.32 | -1.35 | -1.47 | -1.16 | ARL5C |
| 0.21 | 0.32 | 0.1 | 0.22 | AFF2 |
| 0.73 | 0.6 | 0.85 | 0.73 | ANO1 |
| -0.22 | 0.09 | -0.12 | -0.64 | MFN1 |
| 0.87 | 1.29 | 0.68 | 0.65 | TMPRSS5 |
| 0.37 | 0.14 | 0.33 | 0.64 | MAP3K7 |
| 0.88 | 0.87 | 0.97 | 0.8 | POGLUT2 |
| -0.96 | -1.07 | -1.01 | -0.8 | TRAK2 |
